In patent publication US8852587B2 (priority 2008, dated 2014):

System: PrP

Molecule | epitope
scFvW226: scFv: variable heavy and light chain domains of W226 connected by (Gly4Ser)3-linker, C-terminal myc- and his6-tags; SEQ ID NO:6 (protein, C-terminal myc and His6 tags; scFv) scFv: MKYLLPTAAAGLLLLAAQPAMAMAEVQLQQSGAELARPGTSVNLSCKTSGYSFTGYGVSWVKQRIGQGLEWIGEIYPRSGNTYYNEKFKGKATLTADKSSNTAYMELRSLTSEDSAVYFCARWNWERDAMDYWGQGTSVTVSSAKTTPPSDYPLAGGGGSGGGGSGGGGSDIVMTQTPLSLPVSLGDQASISCRSSQSLESSSGYPHLNWYLQKPGQSPQLLIYRVSNRFSGVLDRFSGSGSGTDFTLQISRVEAEDLGVYFCLQITHVPWTFGGGTKLEIKRADAAPTVSAAEEQKLISEEDLEHHHHHH | WEDRYYREN
mAB W226 (antibody, V domains shown) VH: EVQLQQSGAELARPGTSVNLSCKTSGYSFTGYGVSWVKQRIGQGLEWIGEIYPRSGNTYYNEKFKGKATLTADKSSNTAYMELRSLTSEDSAVYFCARWNWERDAMDYWGQGTSVTVSSAKTTPPSDYPLA VL: DIVMTQTPLSLPVSLGDQASISCRSSQSLESSSGYPHLNWYLQKPGQSPQLLIYRVSNRFSGVLDRFSGSGSGTDFTLQISRVEAEDLGVYFCLQITHVPWTFGGGTKLEIKRADAAPTVSAA | WEDRYYREN
